Earlier results in paper PMC11106745 (ACS Chemical Biology, 2024).

Molecular target: SARS-CoV-2 Mac1 (Severe acute respiratory syndrome coronavirus 2, UniProt P0DTD1)
Conditions: HTRF-based displacement assay; cited from earlier work

For “adenosine diphosphate ribose [ADPr, reference compound]”, the IC50 is listed as ~1 µM.
